This test deals with Soluble recombinant MHCII molecule DR1 (HLA-DRA*01:01;DRB1*01:01) (human). Briefly: fluorescence polarisation. (In general: Polarisation of emitted light reports the rotation of a fluorescent probe.)

Values joined by “and” are separate entries in the source; they are usually repeats but may differ in a detail not shown here. Equal entries are not always repeated.

Usually IC50 stands for the concentration at which inhibition is half-maximal.

Consider “Influenza hemagglutinin peptide HA306-318”, for which the IC50 was 74 nM and 79 nM.
